A mixed list of measured activities; the numbers were collected in NIAID ChemDB.

Shared fields: whole-cell or culture tests; organism: Human cytomegalovirus

ECn is the concentration giving n% inhibition of infection, replication or growth. Blank or dashed fields: not listed here. Lines come from different laboratories, so protocols vary.

SMILES | strain | measure | setting | cell line | read by | value
CCCCN1C(=O)c2ccccc2N(C(=O)c2ccc(Cl)cc2)S1(=O)=O | AD169 | EC50 |  | MRC-5 | plaque count | 2.2 µM
Nc1nc(N)c2ncn(C[C@H]3CC[C@H](P(=O)(O)O)O3)c2n1 |  | EC50 |  | WI-38 | plaque count | 100 µg/mL
CC(C)(C)[Si](C)(C)OC[C@H]1O[C@@H](n2ccc3nc(CN)cn3c2=O)[C@H](O[Si](C)(C)C(C)(C)C)[C@@H]1O[Si](C)(C)C(C)(C)C | DAVIS | EC50 |  | HEL | cytopathic effect | 8.9 µM
Cc1cc(C)cc(Cn2c(=O)ccn(CC(F)(F)F)c2=O)c1 | AD169 | EC50 |  |  |  | >640 µM
CC(C)COC1=NS(=O)(=O)N(Cc2ccc(Cl)c(Cl)c2)c2ccccc21 | AD169 | EC50 |  | MRC-5 | plaque count | 9.6 µM
Cn1c(Cl)c([C@@H]2O[C@H](CO)[C@@H](O)[C@H]2O)c2cc(Cl)c(Cl)cc21 |  | EC50 |  | HFF | plaque count | >100 µM
Cc1cc(C)cc(Cn2c(=S)ccn(Cc3ccccc3Cl)c2=O)c1 | AD169 | EC50 |  |  |  | >54 µM
Cc1cn([C@@]23C[C@H](O)[C@@H](CO)[C@@H]2C3)c(=O)[nH]c1=O |  | EC50 |  | HFF | plaque count | >20 µg/mL
OC[C@H]1O[C@@H](n2c(Br)nc3cc(Cl)c(Cl)cc32)[C@H](O)[C@@H]1O | TOWNE | EC50 |  | HFF | virus yield | <0.2 µM
CCc1nc2c3c(cn([C@@H]4O[C@H](CO)[C@@H](O)[C@H]4O)c3n1)C(N)=NN2C |  | EC50 |  | HFF | plaque count | >100 µM
Nc1ccn([C@@]23C[C@H](O)[C@@H](CO)[C@@H]2C3)c(=O)n1 |  | EC50 |  | HFF | plaque count | 88.9 µg/mL
COc1cc(OC)c(NC(=S)Nc2ccc(NC=O)cc2Cl)cc1Cl | AD169 | EC50 |  | HFF | ELISA | 30.7 µg/mL
OC[C@H]1O[C@@H](n2c(Cl)nc3cc(Cl)c(Cl)cc32)[C@H](O)[C@@H]1O | TOWNE | EC50 |  | HFF | virus yield | <1.3 µM
CNc1nnnc2c1ncn2[C@@H]1O[C@H](CO)[C@@H](O)[C@H]1O |  | EC50 |  | HFF | plaque count | >100 µM
CCCCCCCC(=O)NCC#Cc1cn([C@H]2C[C@H](O)[C@@H](COP(=O)(N[C@@H](C)C(=O)OCc3ccccc3)Oc3ccccc3)O2)c(=O)[nH]c1=O | DAVIS | EC50 |  | HEL | cytopathic effect | >100 µM
COC(=O)C(C)NP(=O)(OC[C@@H]1C/C1=C\n1cc(N)c(=O)[nH]c1=O)Oc1ccccc1 | AD169 | EC50 |  | HFF | cytopathic effect | >60 µM
O=C(NCc1ccc(Cl)cc1)c1c[nH]c2ccc(C#CCO)cc2c1=O | AD169 | EC50 |  |  | plaque count | 0.6 µM
Cc1cc(C)cc(Cn2c(=S)ccn(Cc3ccc(Cl)cc3)c2=O)c1 | AD169 | EC50 |  |  |  | >54 µM
CCOC1=NS(=O)(=O)N(Cc2ccc(Cl)c(Cl)c2)c2ccccc21 | AD169 | EC50 |  | MRC-5 | plaque count | 2.5 µM
Cc1cc(C)cc(Cn2c(=S)ccn(CC(=O)c3ccccc3)c2=O)c1 | AD169 | EC50 |  |  |  | >14 µM
Nc1nc2c(ncn2COCCO)c(=O)[nH]1 | AD169 | EC50 |  | HFF | plaque count | 40 µM
CC(C)Nc1nc2cc(Cl)c(Cl)cc2n1[C@H]1O[C@@H](CO)[C@H](O)[C@@H]1O | AD169 | EC50 |  | MRC-5 | hybridisation | 0.05 µM
CCCCN1C(=O)c2ccccc2N(C(=O)c2ccc(OC)cc2)S1(=O)=O | AD169 | EC50 |  | MRC-5 | plaque count | 3.2 µM
O=C(NCc1ccc(Cl)cc1)c1c[nH]c2c(F)cc(CCCO)cc2c1=O | AD169 | EC90 |  |  | plaque count | 3.5 µM
Nc1nc2c(ncn2C=C2CC2CO)c(=O)[nH]1 | AD169 | EC50 |  |  | plaque count | 2.4 µM
Nc1ncc2ncn(C[C@@H]3CC[C@H](P(=O)(O)O)O3)c2n1 |  | EC50 |  | WI-38 | plaque count | >50 µg/mL
CN1N=C(N)c2cn([C@@H]3O[C@H](CO)[C@@H](O)[C@H]3O)c3nc(-c4ccccc4)nc1c23 |  | EC50 |  | HFF | plaque count | 32 µM
CC(C)Nc1nc2cc(Cl)c(Cl)cc2n1[C@@H]1OC[C@@H](O)[C@H]1O | TOWNE | EC50 |  | HFF | virus yield | <5 µM
Nc1cn(/C=C2/C[C@H]2CO)c(=O)[nH]c1=O | AD169 | EC50 |  | HFF | cytopathic effect | 3.4 µM
Nc1nc2c(ncn2CCC(CO)CO)c(=O)[nH]1 | AD169 | EC50 |  | HFF | plaque count | 150 µM
OC[C@H]1O[C@@H](n2c(Cl)nc3cc(Cl)c(Cl)cc32)[C@H](O)[C@@H]1O |  | EC50 |  | HFF | plaque count | 2.9 µM
CSc1nnnc2c1ncn2[C@@H]1O[C@H](CO)[C@@H](O)[C@H]1O |  | EC50 |  | HFF | virus yield | 0.3 µM
CC(C)Nc1nc2cc(Cl)c(Cl)cc2n1[C@@H]1CO[C@H](C)[C@H]1O | AD169 | EC50 |  | MRC-5 | hybridisation | 10 µM
CC(C)Nc1nc2cc(Cl)c(Cl)cc2n1[C@H]1O[C@@H](CO)[C@H](O)[C@@H]1O | TOWNE | EC50 |  | HFF | virus yield | <0.6 µM
CN(Cc1cnc2nc(N)nc(N)c2n1)c1ccc(C(=O)N[C@@H](CCC(=O)O)C(=O)O)cc1 | TOWNE | EC50 | 72 h | MRC-5 | hybridisation | 0.05 µM
Nc1nc2c(ncn2C[C@@H]2CC[C@@H](P(=O)(O)O)O2)c(=O)[nH]1 |  | EC50 |  | MRC-5 | plaque count | 0.11 µg/mL
Cc1nc2c3c(cn([C@@H]4O[C@H](CO)[C@@H](O)[C@H]4O)c3n1)C(N)=NN2C |  | EC50 |  | HFF | plaque count | >100 µM
OC[C@H]1O[C@@H](n2c(Br)nc3cc(Cl)c(Cl)cc32)[C@H](O)[C@@H]1O | AD169 | EC50 |  | MRC-5 | hybridisation | 0.5 µM
OC[C@H]1O[C@@H](n2cnc3cnnnc32)[C@H](O)[C@@H]1O |  | EC50 |  | HFF | virus yield | 15 µM
OC[C@@H]1C[C@H](n2c(Br)nc3cc(Cl)c(Cl)cc32)CO1 | AD169 | EC50 |  | MRC-5 | hybridisation | 14 µM
Cc1cc(C)cc(Cn2c(=O)ccn(Cc3cccc(Cl)c3)c2=O)c1 | AD169 | EC50 |  |  |  | >140 µM
Nc1nc2c(ncn2COC(CO)CO)c(=O)[nH]1 | Isolate T1335 | EC50 |  | MRC-5 | plaque count | 2.96 µM
CCCCN1C(=O)c2ccccc2N(C(=O)c2ccccc2)S1(=O)=O | AD169 | EC50 |  | MRC-5 | plaque count | 24.6 µM
Nc1cn(C=C2C[C@H]2CO)c(=O)[nH]c1=O | TOWNE | EC50 |  | HFF | plaque count | >100 µM
Cc1ccccc1Cn1c(=O)ccn(CC#N)c1=O | AD169 | EC50 |  |  |  | 78 µM

Repeating the final 4 entries:

SMILES | strain | measure | setting | cell line | read by | value
Nc1nc2c(ncn2COC(CO)CO)c(=O)[nH]1 | Isolate T1335 | EC50 |  | MRC-5 | plaque count | 2.96 µM
CCCCN1C(=O)c2ccccc2N(C(=O)c2ccccc2)S1(=O)=O | AD169 | EC50 |  | MRC-5 | plaque count | 24.6 µM
Nc1cn(C=C2C[C@H]2CO)c(=O)[nH]c1=O | TOWNE | EC50 |  | HFF | plaque count | >100 µM
Cc1ccccc1Cn1c(=O)ccn(CC#N)c1=O | AD169 | EC50 |  |  |  | 78 µM